Test results taken from paper PMC6137059.

Target: TcpK (Clostridium perfringens (plasmid pCW3)) (UniProt Q1PLI2)
Test: analytical ultracentrifugation
Conditions: 24 uM TcpK, 12 uM DNA; recombinant protein; protein details: N-terminal His6-TEV, cleaved

## AAGGAACTTTACAGGGAACTTTA (double strand) [oriTmin23]
  binding result: binds

For at least one entry, the source does not settle the construct or the ends of the probe. At least one verdict was read from the data and is not stated in words by the source.
